Laboratory results as given in US6774141B1, “Calanolide and related antiviral compounds, compositions, and uses thereof” (The United States of America as represented by the …, priority 1992, dated 2004).

System: HIV-1
Conditions: for TI (IC50/EC50) BCECF: BCECF-based assay; for TI (IC50/EC50) XXT: XTT-based assay
From the text: Pure compounds were initially evaluated for antiviral activity using an XTT-tetrazolium anti-HIV primary screening assay described previously (Boyd, M. R., in AIDS Etiology, Diagnosis, Treatment and Prevention (DeVita V. T., Jr., Hellman S., Rosenberg S. A., eds.), pp 305-319 (Philadelphia: Lippincott, 1988); Gustafson, K. R., et al., J. Med. Chem., 35, 1978-1986 (1992); Weislow, O. S., et al., J. Natl. Cancer Inst., 81, 577-586 (1989); Gulakowski, R. J., et al., J. Virol. Methods, 33, 87-100 (1991)). The CEM-SS human lymphocytic target cell line used in all assays was maintained in RPMI 1640 medium (Gibco, Grand Island, N.Y.), without phenol red, and was supplemented with 5% fetal bovine serum, 2 mM L-glutamine and 50 μg/ml gentamicin (complete medium). Exponentially-growing cells were pelleted and resuspended at a concentration of 2.0×10^5 cells/ml in complete medium. The Haitian variant of HIV, HTLV-IIIRF (3.54×10^6 SFU/ml), was used throughout. Frozen virus stock solutions were thawed immediately before use and resuspended in complete medium to yield […]. The appropriate amounts of the pure compounds for anti-HIV evaluations were dissolved in 100% dimethylsulfoxide (DMSO), then diluted in complete medium to the desired initial concentration (and with the final DMSO content not exceeding 1%). All serial drug dilutions, reagent additions, and plate-to-plate transfers were carried out with an automated Biomek 1000 Workstation (Beckman Instruments, Palo Alto, Calif.).
Briefly, the procedure was as follows. Uninfected CEM-SS cells were plated at a density of 1×10^4 cells in 50 μl of complete medium. Diluted HIV-1 virus was then added to appropriate wells in a volume of 50 μl to yield a multiplicity of infection of 0.6. Appropriate cell, virus and drug controls were incorporated in each experiment; the final volume in each microtiter well was 200 μl. Quadruplicate wells were used for virus-infected cells, and duplicate wells were used for uninfected cells. Plates were incubated at 37° C. in an atmosphere containing 5% CO2 for 6 days. Subsequently, aliquots of cell-free supernatant were removed from each well using the Biomek, and analyzed for reverse transcriptase activity, p24 antigen production and synthesis of infectious virions as described (Gulakowski, R. J., et al., J. Virol. Methods, 33, 87-100 (1991)). Cellular growth or viability then was estimated on the remaining contents of each well using the XTT (Weislow, O. S., et al., J. Natl. Cancer Inst., 81, 577-586 (1989)), BCECF (Rink, T. L., et al., J. Cell. Biol., 95, 189-196 (1982)) and DAPI (McCaffrey, T. A., et al., In Vitro Cell Develop. Biol., 24, 247-252 (1988)) assays as described (Gulakowski, R. J., et al., J. Virol. Methods, 33, 87-100 (1991)).

Row | SMILES | TI (IC50/EC50) BCECF | TI (IC50/EC50) XXT | in vitro therapeutic index (FIGS. 4A-D, IC50/EC50)
1 | CCCc1cc(=O)oc2c3c(c4c(c12)OC(C)(C)C=C4)O[C@@H](C)[C@H](C)[C@@H]3O [Costatolide, costatolide] | 40 | 43 | –
2 | CCCc1cc(=O)oc2c3c(c4c(c12)OC(C)(C)CC4)O[C@H](C)[C@@H](C)[C@@H]3O [DH-calanolide A, 7,8-dihydrocalanolide A] | 98 | 54 | –
3 | CCCc1cc(=O)oc2c3c(c4c(c12)OC(C)(C)CC4)O[C@@H](C)[C@H](C)[C@@H]3O [DH-costatolide, 7,8-dihydrocostatolide] | 33 | 62 | –
4 | CCCc1cc(=O)oc2c3c(c4c(c12)OC(C)(C)C=C4)O[C@H](C)[C@@H](C)[C@@H]3O [calanolide A] | 89 | 110 | ≥ 130
